{
  "source": "paper PMC8664216",
  "about": "(PLoS Neglected Tropical Diseases, 2021)",
  "key": {"CHIKV-LR": {"tested_on": "CHIKV-LR", "experiment": "In-gel hybridization of CHIKV gRNA and sgRNA", "assay_type": "cell-based, Chikungunya virus", "details": "Huh7 cells, MOI 10, 10 μM tomatidine, 6 hpi"}, "CD98": {"tested_on": "CD98", "details": "Huh7 cells, 10 μM tomatidine, mass spectrometry; for Fold change in CD98 protein expression, 16 h Toma vs EtOH: FDR <0.1"}, "[1]": {"tested_on": "thioredoxin-related transmembrane protein 2 (TMX2)", "details": "Huh7 cells, 10 μM tomatidine, mass spectrometry; for Fold change in TMX-2 protein expression, 16 h Toma vs EtOH: FDR <0.1"}, "p62": {"tested_on": "p62", "details": "Huh7 cells, 10 μM tomatidine, mass spectrometry; for Fold change in p62 protein expression, 16 h Toma vs EtOH: FDR <0.1"}, "metallothionein (MT)": {"tested_on": "metallothionein (MT)", "details": "Huh7 cells, 10 μM tomatidine, mass spectrometry; for Fold change in MT protein expression, 16 h Toma vs EtOH: FDR <0.1"}},
  "note": "Read-outs that look alike come from different tables or passages of the source. Marks after values point to notes of the source that are not given here.",
  "data": [
    {"compound": "C[C@H]1CC[C@]2(NC1)O[C@H]1C[C@H]3[C@@H]4CC[C@H]5C[C@@H](O)CC[C@]5(C)[C@H]4CC[C@]3(C)[C@H]1[C@@H]2C", "note": "[tomatidine, Tomatidine]", "values": [
      {"measurement": "sgRNA to gRNA ratio, presence vs absence of tomatidine", "setting": "CHIKV-LR", "result": "No statistical differences"},
      {"measurement": "Fold change in CD98 protein expression, 6 h Toma vs EtOH", "setting": "CD98; 6 h", "result": 0.95, "unit": "fold"},
      {"measurement": "Fold change in CD98 protein expression, 16 h Toma vs EtOH", "setting": "CD98", "result": 1.72, "unit": "fold"},
      {"measurement": "Fold change in CD98 protein expression, 16 h Toma vs EtOH", "setting": "CD98; listed as Toma", "result": "1.72 ^* fold"},
      {"measurement": "Fold change in TMX-2 protein expression, 6 h Toma vs EtOH", "setting": "[1]; 6 h", "result": 1.04, "unit": "fold"},
      {"measurement": "Fold change in TMX-2 protein expression, 16 h Toma vs EtOH", "setting": "[1]", "result": 0.68, "unit": "fold"},
      {"measurement": "Fold change in TMX-2 protein expression, 16 h Toma vs EtOH", "setting": "[1]; listed as Toma", "result": "0.68 ^* fold"},
      {"measurement": "Fold change in p62 protein expression, 6 h Toma vs EtOH", "setting": "p62; 6 h", "result": 1.02, "unit": "fold"},
      {"measurement": "Fold change in p62 protein expression, 16 h Toma vs EtOH", "setting": "p62", "result": 2.07, "unit": "fold"},
      {"measurement": "Fold change in p62 protein expression, 16 h Toma vs EtOH", "setting": "p62; listed as Toma", "result": "2.07 ^* fold"},
      {"measurement": "Fold change in MT protein expression, 6 h Toma vs EtOH", "setting": "metallothionein (MT); 6 h", "result": 0.93, "unit": "fold"},
      {"measurement": "Fold change in MT protein expression, 16 h Toma vs EtOH", "setting": "metallothionein (MT)", "result": 3.68, "unit": "fold"},
      {"measurement": "Fold change in MT protein expression, 16 h Toma vs EtOH", "setting": "metallothionein (MT); listed as Toma", "result": "3.68 ^* fold"}
    ]}
  ]
}
